Patent US10207993B2 (priority 2014, dated 2019)

system: H37Rv; test: Inhibition of Mycobacterium colony growth in THP1 macrophages (CFU counts); type: cell-based, M. tuberculosis; settings: PMA-differentiated THP-1, MOI 10, CFU at 90 hr

| SMILES | H37Rv % Inhibition at 500 nM |
| --- | --- |
| O=C(OC1CCN(Cc2ccccc2)CC1)C(O)(c1ccccc1)c1ccccc1 | 46% |
| O=C(O[C@@H]1CCCN(Cc2ccccc2)C1)C(O)(c1ccccc1)c1ccccc1 | 79% |
| CC(C)NC(=O)N1CCCC(OC(=O)C(O)(c2ccccc2)c2ccccc2)C1 (centres unmarked) | 51% |
| CS(=O)(=O)N1CCCC(OC(=O)C(O)(c2ccccc2)c2ccccc2)C1 (centres unmarked) | 55% |
| O=C(OC1CCN(Cc2ccccc2)C1)C(O)(c1ccccc1)c1ccccc1 (centres unmarked) | 46% |
